Source: paper PMC1238737, “Interaction between Polyketide Synthase and Transporter Suggests Coupled Synthesis and Export of Virulence Lipid in M. tuberculosis” (2005)

These substances were tested against 373-amino-acid fragment of PpsE (two-hybrid prey from the genomic library) (assay: yeast two-hybrid, liquid β-galactosidase assay). Conditions: parent: est. 370; read off a plot.

Substance | response
MmpL7 domain 2 fused to the LexA DNA-binding protein (two-hybrid bait) W571R | 65 Miller Units
MmpL7 domain 2 fused to the LexA DNA-binding protein (two-hybrid bait) I611S | 31 Miller Units
MmpL7 domain 2 fused to the LexA DNA-binding protein (two-hybrid bait) Y594H | 49 Miller Units
MmpL7 domain 2 fused to the LexA DNA-binding protein (two-hybrid bait) Y594C | 30 Miller Units
